A mixed list of measured activities; the numbers were collected in NIAID ChemDB.

Shared fields: tests on isolated targets; agent: HIV-1; protein: Protease; read-out: Ki

Rows are shuffled and stem from different studies. An empty or dashed field is not shown.

| compound | strain | changes | read by | setting | value |
|---|---|---|---|---|---|
| O=C1N(Cc2cccc(C(=O)C(F)(F)F)c2)[C@H](Cc2ccccc2)[C@H](O)[C@@H](O)[C@@H](Cc2ccccc2)N1Cc1cccc(C(=O)C(F)(F)F)c1 | RF |  | fluorescence |  | 0.000037 µM |
| CCCC1(CCc2ccccc2)CC(O)=C(C(c2cccc(NS(=O)(=O)c3ccc(C#N)cn3)c2)C(C)(C)C)C(=O)O1 |  |  | fluorescence |  | 0.019 µM |
| CC(C)C[C@H](NC(=O)OCc1ccccc1)C(=O)N[C@H](C(=O)N[C@@H](CC(C)C)[C@@H](O)[C@H](O)[C@H](CC(C)C)NC(=O)[C@@H](NC(=O)[C@H](CC(C)C)NC(=O)OCc1ccccc1)C(C)C)C(C)C |  |  | fluorescence |  | 0.00087 µM |
| Cc1ccc(S(=O)(=O)N(CC(C)C)[C@@H](CCCCNC(=O)CNCc2ccccc2)C(=O)O)cc1 |  |  | FRET |  | >0.3 µM |
| CC[C@H](C)[C@H](NC(=O)[C@H](Cc1ccccc1)C[C@@H](O)[C@H](Cc1ccccc1)NC(=O)OC(C)(C)C)C(=O)N[C@@H](Cc1ccccc1)C(N)=O |  |  | absorbance |  | 0.0014 µM |
| CC(C)(C)OC(=O)N[C@H](Cc1ccccc1)/C(O)=C(\C#N)c1ccc([N+](=O)[O-])cc1 |  |  | HPLC |  | 54 µM |
| Cc1ccccc1CNC(=O)[C@H]1N(C(=O)[C@@H](O)[C@H](Cc2ccc(OC(C)C)cc2)NC(=O)c2cccc(O)c2C)CSC1(C)C |  |  | HPLC |  | 0.00004 µM |
| O=C1N(Cc2ccc(CO)cc2)CC[C@@H](O)[C@@H](Cc2ccccc2)N1Cc1ccc(CO)cc1 |  |  |  |  | 0.23 µM |
| O=[P@]12OC([C@@H](O)[C@@H](Cc3ccccc3)N1Cc1ccc(O)cc1)[C@@H](Cc1ccccc1)N2Cc1ccc(O)cc1 |  |  | substrate cleavage |  | 0.0049 µM |
| CCCC1(CCc2ccccc2)CC(O)=C(C(c2cccc(NS(=O)(=O)c3ccc(C(F)(F)F)cn3)c2)C(C)(C)C)C(=O)O1 |  |  | fluorescence |  | 0.043 µM |
| CC(C)C[C@H](NC(=O)[C@@H](N)[C@@H](C)O)C(=O)N[C@@H](CC(N)=O)C(=O)N[C@@H](Cc1ccccc1)B1O[C@H](C2CCCCC2)[C@@H](C2CCCCC2)O1 |  |  | HPLC |  | 50 µM |
| O=C1N(Cc2ccc(CO)cc2)[C@H](COc2ccccc2)[C@H](O)[C@@H](O)[C@@H](COc2ccccc2)N1Cc1ccc(CO)cc1 | IIIB | PR-L10F I84V PR-L90M | fluorescence |  | 0.00017 µM |
| CC(C)(C)OC(=O)N[C@@H](Cc1ccc([N+](=O)[O-])cc1)/C(O)=C(\C#N)c1ccc([N+](=O)[O-])cc1 |  |  | HPLC |  | 60 µM |
| O=C1N(Cc2cccc(CO)c2)[C@H](Cc2ccccc2)[C@H](O)[C@@H](O)[C@@H](Cc2ccccc2)N1Cc1cccc(-c2ccn[nH]2)c1 | RF |  |  |  | 0.00016 µM |
| Cc1ccccc1CNC(=O)[C@H]1N(C(=O)[C@@H](O)[C@H](Cc2ccc3c(c2)OCO3)NC(=O)c2cccc(O)c2C)CSC1(C)C |  |  | HPLC |  | 0.000037 µM |
| C/C(=N\O)c1cccc(CN2C(=O)N(Cc3cccc(/C(C)=N/O)c3)[C@H](Cc3ccccc3)[C@H](O)[C@@H](O)[C@H]2Cc2ccccc2)c1 | RF |  |  |  | 0.000018 µM |
| O=C(N[C@H]1c2ccccc2C[C@H]1O)[C@H](OCc1cc(F)cc(F)c1)[C@H](O)[C@@H](O)[C@@H](OCc1cc(F)cc(F)c1)C(=O)N[C@H]1c2ccccc2C[C@H]1O |  |  |  |  | 0.00183 µM |
| CC(C)(C)OC(=O)N[C@@H](Cc1ccccc1)[C@H](O)CN[C@@H](Cc1ccccc1)C(=O)N[C@@H](CCC(N)=O)C(=O)N[C@@H](Cc1ccccc1)C(N)=O |  |  | absorbance |  | 0.014 µM |
| CC(C)C[C@H](NC(=O)OCc1ccccc1)C(=O)N[C@H](C(=O)N[C@@H](Cc1ccccc1)[C@@H](O)[C@H](O)[C@H](Cc1ccccc1)NC(=O)[C@@H](NC(=O)[C@H](CC(C)C)NC(=O)OCc1ccccc1)C(C)C)C(C)C |  |  | fluorescence |  | 0.0014 µM |
| CC(C)(C)OC(=O)N[C@@H](Cc1ccccc1)[C@@H](O)CN[C@@H](Cc1ccccc1)C(=O)N[C@@H](CCC(=O)O)C(=O)N[C@@H](Cc1ccccc1)C(N)=O |  |  | absorbance |  | 0.0001 µM |
| O=C(N[C@H]1c2ccccc2C[C@H]1O)[C@H](OCc1ccccc1)[C@H](O)[C@@H](O)[C@@H](OCc1ccccc1)C(=O)N[C@H]1c2ccccc2C[C@H]1O |  |  | fluorescence |  | 0.0004 µM |
| CCCOc1ccc(C[C@H](NC(=O)c2cccc(O)c2C)[C@H](O)C(=O)N2CSC(C)(C)[C@H]2C(=O)NCc2ccccc2C)cc1 |  |  | HPLC |  | 0.000059 µM |
| CC(C)NC(=O)[C@H](Cc1ccccc1)NCC(O)[C@@H]1Cc2ccc(cc2)OCCCC(=O)N[C@@H](CC(N)=O)C(=O)N1 |  |  |  |  | 6.2 µM |
| CC(C)[C@H](NC(=O)[C@@H](NC(=O)C1CCCCC1P(=O)(O)C(Cc1ccccc1)NC(=O)OCc1ccccc1)C(C)C)C(N)=O |  |  |  | pH 6.5 | 0.05 µM |
| CC(C)[C@H](NC(=O)[C@H](C)NC(=O)OCc1ccccc1)C(=O)N[C@@H](Cc1ccccc1)C[C@H](O)[C@H](Cc1ccccc1)NC(=O)OCc1cncs1 |  |  | fluorescence |  | 0.003 µM |
| CCCC(=O)c1cccc(CN2C(=O)N(Cc3cccc(C(=O)CCC)c3)[C@H](Cc3ccccc3)[C@H](O)[C@@H](O)[C@H]2Cc2ccccc2)c1 | RF |  |  |  | 0.0014 µM |
| O=C(NCc1ccc(F)cc1F)[C@H](OCc1ccccc1)[C@H](O)[C@@H](O)[C@@H](OCc1ccccc1)C(=O)N[C@H]1c2ccccc2C[C@H]1O |  |  | fluorescence |  | 0.02 µM |
| CC(C)[C@H](NC(=O)[C@@H](NC(=O)C(Cc1ccccc1)CP(=O)(O)C(Cc1ccccc1)NC(=O)[C@@H](NC(=O)[C@@H](NC(=O)OC(C)(C)C)C(C)C)C(C)C)C(C)C)C(N)=O |  |  |  | pH 4.5 | 0.00004 µM |
| CC[C@H](C)[C@H](NC(=O)[C@H](Cc1ccccc1)NC[C@H](O)[C@H](Cc1ccccc1)NC(=O)OC(C)(C)C)C(=O)N[C@@H](Cc1ccccc1)C(N)=O |  |  | absorbance |  | 0.15 µM |
| CC(C)(C)OC(=O)N[C@@H](Cc1ccccc1)[C@H](O)CNC[C@@H](O)[C@H](Cc1ccccc1)NC(=O)C(C)(O)C(C)(C)C |  |  | substrate cleavage |  | 0.018 µM |
| O=C1N(CC2CC2)CC[C@@H](O)[C@@H](Cc2ccccc2)N1CC1CC1 |  |  |  |  | >12.5 µM |
| COc1ccc(S(=O)(=O)N(CC2CCCC2)C[C@@H](O)CN(CCc2ccccc2)C(=O)OCc2cccnc2)cc1 |  |  |  |  | 0.017 µM |
| CCC(Cc1ccccc1)c1cc(O)c(C(CC)c2ccccc2)c(=O)o1 |  |  | fluorescence |  | 0.038 µM |
| COc1ccc(S(=O)(=O)N(C[C@@H](O)[C@H](Cc2ccccc2)NC(=O)O[C@H]2CO[C@H]3OCC[C@H]32)CC(C)(C)CCC#N)cc1 |  |  | fluorescence |  | <0.001 µM |
| CC(C)[C@H](NC(=O)[C@@H](NC(=O)C1CCCC1P(=O)(O)C(Cc1ccccc1)NC(=O)c1ccccc1)C(C)C)C(N)=O |  |  |  | pH 6.5 | 13 µM |
| CCC(C)[C@H](NC(=O)[C@H](C(C)C)[C@@H](O)[C@H](O)[C@H](CC1CCCCC1)NC(=O)c1ccccc1SCCCCC[C@@H]1SC[C@@H]2NC(=O)NC21)C(=O)NCc1ccccn1 |  |  |  |  | 0.01 µM |
| O=[P@]12O[C@@H]([C@@H](O)[C@@H](Cc3ccccc3)N1Cc1ccc3ccccc3c1)[C@@H](Cc1ccccc1)N2Cc1ccc2ccccc2c1 |  |  | substrate cleavage |  | 0.66 µM |
| CC(C)C[C@H](NC(=O)[C@H](CO)NC(=O)OC(C)(C)C)C(=O)N[C@@H](CC(N)=O)C(=O)N[C@@H](Cc1ccccc1)B(O)O |  |  | HPLC |  | >10 µM |
| CC(C)(C)NC(=O)[C@@H]1CCCCN1C[C@@H](O)[C@H]1Cc2ccc(cc2)OCCCCCC(=O)N[C@@H](CC(N)=O)C(=O)N1 |  |  |  |  | 0.05 µM |
| O=C(N[C@H]1c2ccccc2C[C@H]1O)[C@H](OCc1ccc(F)c(F)c1)[C@H](O)[C@@H](O)[C@@H](OCc1ccc(F)c(F)c1)C(=O)N[C@H]1c2ccccc2C[C@H]1O |  |  |  |  | 0.00492 µM |
| O=C1N(Cc2ccc3ccccc3c2)CC[C@@H](O)[C@@H](Cc2ccccc2)N1Cc1ccc2ccccc2c1 |  |  |  |  | 0.25 µM |
| CC(C)[C@H](NC(=O)[C@@H](NC(=O)C1CCCC1P(=O)(O)C(NC(=O)OCc1ccccc1)c1ccccc1)C(C)C)C(N)=O |  |  |  | pH 4.5 | 6.9 µM |
| CNC(=O)[C@H](OCc1ccccc1)[C@H](O)[C@@H](O)[C@@H](OCc1ccccc1)C(=O)N[C@H]1c2ccccc2C[C@H]1O |  |  | fluorescence |  | 0.002 µM |
| CCC(C)[C@H](NC(=O)CCCCCCCCCCCCCCC(=O)N[C@H](C(=O)N[C@@H](CC(C)C)C(=O)N[C@@H](CC(N)=O)C(=O)N[C@@H](Cc1ccccc1)C(=O)O)C(C)O)C(=O)N[C@H](C(=O)N[C@@H](CC(C)C)C(=O)N[C@@H](Cc1c[nH]c2ccccc12)C(=O)O)C(C)O |  |  | fluorescence |  | 0.67 µM |
| O=C1N(Cc2cccc(-c3cnc[nH]3)c2)[C@H](Cc2ccccc2)[C@H](O)[C@@H](O)[C@@H](Cc2ccccc2)N1Cc1cccc(-c2cnc[nH]2)c1 | RF |  |  |  | 0.00019 µM |
| O=C(N[C@H]1c2ccccc2C[C@H]1O)[C@H](Cc1ccccc1)C[C@H](O)CN1C(=O)C2(CCCCC2)C[C@@H]1Cc1ccccc1 |  |  |  |  | 0.0008 µM |
| COc1ccc(S(=O)(=O)N(CC(C)C)C[C@@H](O)[C@H](Cc2ccccc2)NC(=O)O[C@H]2CCC[C@H]3O[C@@H]4OCC[C@@H]4[C@@H]23)cc1 |  |  | substrate cleavage / fluorescence |  | 0.0167 µM |
| Cc1ccc(S(=O)(=O)N(CC(C)C)[C@@H](CCCCNC(=O)[C@H](CC2C=Nc3ccccc32)NS(=O)(=O)c2ccccc2)C(=O)OCC(O)CO)cc1 |  |  | FRET |  | >0.3 µM |
| CC(C)[C@H](NC(=O)[C@H](C)NC(=O)OCc1ccccc1)C(=O)N[C@@H](Cc1ccccc1)[C@H](O)CN1C[C@H]2CCCC[C@H]2C[C@H]1C(=O)NC(C)(C)C |  |  | fluorescence |  | 0.0015 µM |
| Cc1ccccc1CNC(=O)[C@H]1N(C(=O)[C@@H](O)[C@H](Cc2ccccc2)NC(=O)c2cccc(O)c2C)CSC1(C)C |  |  | HPLC |  | 0.000035 µM |
| O=C1N(Cc2cccc(/C(=N\O)C(F)(F)F)c2)[C@H](Cc2ccccc2)[C@H](O)[C@@H](O)[C@@H](Cc2ccccc2)N1Cc1cccc(/C(=N\O)C(F)(F)F)c1 | RF |  |  |  | 0.0039 µM |
| CCCCN1[C@H](Cc2ccccc2)[C@H](O)[C@@H]2O[P@]1(=O)N(CCCC)[C@@H]2Cc1ccccc1 |  |  | substrate cleavage |  | 0.35 µM |
| CC(C)C[C@H](NC(=O)[C@@H](NC(=O)[C@H](Cc1ccccc1)NC(=O)OCc1ccccc1)C(C)C)[C@@H](O)[C@H](O)[C@H](CC(C)C)NC(=O)[C@@H](NC(=O)[C@H](Cc1ccccc1)NC(=O)OCc1ccccc1)C(C)C |  |  | fluorescence |  | 0.0055 µM |
| CC[C@H](C)C(NC(=O)[C@H](Cc1ccccc1)NCC[C@H](Cc1ccccc1)NC(=O)OC(C)(C)C)C(=O)N[C@@H](Cc1ccccc1)C(N)=O |  |  | absorbance |  | 0.07 µM |
| COc1ccccc1CNC(=O)[C@H](OCc1ccccc1)[C@H](O)[C@@H](O)[C@@H](OCc1ccccc1)C(=O)N[C@H]1c2ccccc2C[C@H]1O |  |  | fluorescence |  | 0.002 µM |
| CCOc1ccc(C[C@H](NC(=O)c2cccc(O)c2C)[C@H](O)C(=O)N2CSC(C)(C)[C@H]2C(=O)NCc2ccccc2C)cc1 |  |  | HPLC |  | 0.000038 µM |
| CC(C)(C)OC(=O)N[C@@H](Cc1ccccc1)[C@@H](O)C[C@@H](Cc1ccccc1)C(=O)N[C@@H](CCC(=O)O)C(=O)N[C@@H](Cc1ccccc1)C(N)=O |  |  | absorbance |  | 0.00002 µM |

Repeating the first 6 entries:

compound,strain,changes,read by,setting,value
O=C1N(Cc2cccc(C(=O)C(F)(F)F)c2)[C@H](Cc2ccccc2)[C@H](O)[C@@H](O)[C@@H](Cc2ccccc2)N1Cc1cccc(C(=O)C(F)(F)F)c1,RF,,fluorescence,,0.000037 µM
CCCC1(CCc2ccccc2)CC(O)=C(C(c2cccc(NS(=O)(=O)c3ccc(C#N)cn3)c2)C(C)(C)C)C(=O)O1,,,fluorescence,,0.019 µM
CC(C)C[C@H](NC(=O)OCc1ccccc1)C(=O)N[C@H](C(=O)N[C@@H](CC(C)C)[C@@H](O)[C@H](O)[C@H](CC(C)C)NC(=O)[C@@H](NC(=O)[C@H](CC(C)C)NC(=O)OCc1ccccc1)C(C)C)C(C)C,,,fluorescence,,0.00087 µM
Cc1ccc(S(=O)(=O)N(CC(C)C)[C@@H](CCCCNC(=O)CNCc2ccccc2)C(=O)O)cc1,,,FRET,,>0.3 µM
CC[C@H](C)[C@H](NC(=O)[C@H](Cc1ccccc1)C[C@@H](O)[C@H](Cc1ccccc1)NC(=O)OC(C)(C)C)C(=O)N[C@@H](Cc1ccccc1)C(N)=O,,,absorbance,,0.0014 µM
CC(C)(C)OC(=O)N[C@H](Cc1ccccc1)/C(O)=C(\C#N)c1ccc([N+](=O)[O-])cc1,,,HPLC,,54 µM